{"source": "patent US7419966B2", "about": "“[5-carboxamido or 5-fluoro]-[2′,3′-unsaturated or 3′-modified]-pyrimidine nucleosides” (Emory University, priority 1995, dated 2008)", "tested_on": "hepatitis B virus in transfected HepG-2 (2.2.15) cells", "assay": "Anti-HBV activity in 2.2.15 cell cultures (HBV virion DNA and replicative intermediates)", "type": "cell-based", "procedure": "The ability of the active compounds to inhibit the growth of virus in 2.2.15 cell cultures (HepG2 cells transformed with hepatitis virion) can be evaluated as described in detail below.\nA summary and description of the assay for antiviral effects in this culture system and the analysis of HBV DNA has been described (Korba and Milman, 1991, Antiviral Res., 15:217). The antiviral evaluations were performed on two separate passages of cells. All wells, in all plates, were seeded at the same density and at the same time.\nDue to the inherent variations in the levels of both intracellular and extracellular HBV DNA, only depressions greater than 3.5-fold (for HBV virion DNA) or 3.0-fold (for HBV DNA replication intermediates) from the average levels for these HBV DNA forms in untreated cells are considered to be statistically significant [P<0.05]. The levels of integrated HBV DNA in each cellular DNA preparation (which remain constant on a per cell basis in these experiments) were used to calculate the levels of intracellular HBV DNA forms, thereby ensuring that equal amounts of cellular DNA were compared between separate samples.\nTypical values for extracellular HBV virion DNA in untreated cells ranged from 50 to 150 pg/ml culture medium (average of approximately 76 pg/ml). Intracellular HBV DNA replication intermediates in untreated cells ranged from 50 to 100 pg/μg cell DNA (average approximately 74 pg/μg cell DNA). In general, depressions in the levels of intracellular HBV DNA due to treatment with antiviral compounds are less pronounced, and occur more slowly, than depressions in the levels of HBV virion DNA (Korba and Milman, 1991, Antiviral Res., 15:217)."}
{"compound": "Nc1nc(=O)n([C@@H]2C=C[C@H](CO)O2)cc1F", "note": "[L-F-D4C, β-L-2′,3′-didehydro-2′,3′-dideoxy-5-fluoro-cytidine]", "values": [{"measurement": "Selectivity Index IC50/EC90 RI", "setting": "Table 4", "result": ">4"}, {"measurement": "Selectivity Index IC50/EC90 Virion", "setting": "Table 4", "result": ">7.3"}]}
{"compound": "5-carboxylic acid amide-2′,3′-dideoxy-3′-thiacytidine [C Carboxamide (+)-β-D]", "values": [{"measurement": "Selectivity Index IC50/EC90 RI", "setting": "Table 2", "result": 296}, {"measurement": "Selectivity Index IC50/EC90 Virion", "setting": "Table 2", "result": 1249}]}
{"compound": "Nc1ccn([C@@H]2C=C[C@H](CO)O2)c(=O)n1", "note": "[L-D4C, β-L-2′,3′-didehydro-2′,3′-dideoxy-cytidine]", "values": [{"measurement": "Selectivity Index IC50/EC90 RI", "setting": "Table 4", "result": 454}, {"measurement": "Selectivity Index IC50/EC90 Virion", "setting": "Table 4", "result": 1149}]}
{"compound": "NC(=O)c1cn([C@@H]2CS[C@H](CO)O2)c(=O)nc1N", "note": "[C Carboxamide (−)-β-L, 5-carboxylic acid amide-2′,3′-dideoxy-3′-thiacytidine]", "values": [{"measurement": "Selectivity Index IC50/EC90 RI", "setting": "Table 2", "result": 177}, {"measurement": "Selectivity Index IC50/EC90 Virion", "setting": "Table 2", "result": 1165}]}
